In article PMC10681723, “The N-terminus of Spt16 anchors FACT to MCM2–7 for parental histone recycling” (Nucleic Acids Research, 2023):

B1: Yeast FACT complex containing GFP-tagged full-length (FL) Spt16 (complex, budding yeast (S. cerevisiae))
chain 1: MEELNIDFDVFKKRIELLYSKYNEFEGSPNSLLFVLGSSNAENPYQKTTILHNWLLSYEFPATLIALVPGKVIIITSSAKAKHLQKAIDLFKDPESKITLELWQRNNKEPELNKKLFDDVIALINSAGKTVGIPEKDSYQGKFMTEWNPVWEAAVKENEFNVIDISLGLSKVWEVKDVNEQAFLSVSSKGSDKFMDLLSNEMVRAVDEELKITNAKLSDKIENKIDDVKFLKQLSPDLSALCPPNYKFNFDLLDWTYSPIIQSGKKFDLRVSARSTNDQLYGNGCILASCGIRYNNYCSNITRTFLIDPSEEMANNYDFLLTLQKEIVTNILKPGRTPKEVYESVIEYIEKTKPELVPNFTKNIGSLIGLEFRDSNFILNVKNDYRKIQRGDCFNISFGFNNLKDSQSANNYALQLADTVQIPLDETEPPRFLTNYTKAKSQISFYFNNEEEDNNKKKSSPATKVPSKPDRNSKILRTKLRGEARGGAEDAQKEQIRKENQKKLHEKLEKNGLLRFSAADANGPDSEPRQYFKKYESYVRDSQLPTNIRDLRIHVDWKSQTIILPIYGRPVPFHINSYKNGSKNEEGEYTYLRLNFNSPGSSGGISKKVEELPYEESADNQFVRSITLRSKDGDRMSETFKQIADLKKEATKREQERKALADVVQQDKLIENKTGRTKRLDQIFVRPNPDTKRVPSTVFIHENGIRFQSPLRTDSRIDILFSNIKNLIFQSCKGELIVVIHIHLKNPILMGKKKIQDVQFYREASDMSVDETGGGRRGQSRFRRYGDEDELEQEQEERRKRAALDKEFKYFADAIAEASNGLLTVENTFRDLGFQGVPNRSAVFCMPTTDCLVQLIEPPFLVINLEEVEICILERVQFGLKNFDMVFVYKDFNKPVTHINTVPIESLDFLKQWLTDMDIPYTVSTINLNWATIMKSLQDDPYQFFLDGGWNFLATGSDDEASDESEEEVSEYEASEDDVSDESAFSEDEEGSEVDDDISGDESEDYTGDESEEGEDWDELEKKAARADRGANFRD
chain 2: MSTDFDRIYLNQSKFSGRFRIADSGLGWKISTSGGSAANQARKPFLLPATELSTVQWSRGCRGYDLKINTKNQGVIQLDGFSQDDYNLIKNDFHRRFNIQVEQREHSLRGWNWGKTDLARNEMVFALNGKPTFEIPYARINNTNLTSKNEVGIEFNIQDEEYQPAGDELVEMRFYIPGVIQTNVDENMTKKEESSNEVVPKKEDGAEGEDVQMAVEEKSMAEAFYEELKEKADIGEVAGDAIVSFQDVFFTTPRGRYDIDIYKNSIRLRGKTYEYKLQHRQIQRIVSLPKADDIHHLLVLAIEPPLRQGQTTYPFLVLQFQKDEETEVQLNLEDEDYEENYKDKLKKQYDAKTHIVLSHVLKGLTDRRVIVPGEYKSKYDQCAVSCSFKANEGYLYPLDNAFFFLTKPTLYIPFSDVSMVNISRAGQTSTSSRTFDLEVVLRSNRGSTTFANISKEEQQLLEQFLKSKNLRVKNEDREVQERLQTALGSDSDEEDINMGSAGEDDESVDEDFQVSSDNDADEVAEEFDSDAALSDAEGGSDEERPSKKPKVE
notes: Spt16, subunit of the FACT complex, budding yeast; Pob3, subunit of the FACT complex, budding yeast; co-purified with tagged Spt16; also called FL FACT complex; wild-type FACT complex; source: purified from yeast cells on homemade GFP nanobody beads (500 mM NaCl wash)
B2: Yeast FACT complex containing GFP-tagged N-domain-deletion (ΔN) Spt16 (complex, budding yeast (S. cerevisiae))
chain 1: MRGGAEDAQKEQIRKENQKKLHEKLEKNGLLRFSAADANGPDSEPRQYFKKYESYVRDSQLPTNIRDLRIHVDWKSQTIILPIYGRPVPFHINSYKNGSKNEEGEYTYLRLNFNSPGSSGGISKKVEELPYEESADNQFVRSITLRSKDGDRMSETFKQIADLKKEATKREQERKALADVVQQDKLIENKTGRTKRLDQIFVRPNPDTKRVPSTVFIHENGIRFQSPLRTDSRIDILFSNIKNLIFQSCKGELIVVIHIHLKNPILMGKKKIQDVQFYREASDMSVDETGGGRRGQSRFRRYGDEDELEQEQEERRKRAALDKEFKYFADAIAEASNGLLTVENTFRDLGFQGVPNRSAVFCMPTTDCLVQLIEPPFLVINLEEVEICILERVQFGLKNFDMVFVYKDFNKPVTHINTVPIESLDFLKQWLTDMDIPYTVSTINLNWATIMKSLQDDPYQFFLDGGWNFLATGSDDEASDESEEEVSEYEASEDDVSDESAFSEDEEGSEVDDDISGDESEDYTGDESEEGEDWDELEKKAARADRGANFRD
chain 2: B1 chain 2
notes: Spt16 of budding yeast with residues 2–484 deleted (spt16-ΔN); Pob3, subunit of the FACT complex, budding yeast; co-purified with tagged Spt16-ΔN; also called Spt16-ΔN FACT complex; mutant FACT lacking the Spt16 N-terminus; source: purified from spt16-ΔN yeast cells on homemade GFP nanobody beads (500 mM NaCl wash)

Target: Recombinant Saccharomyces cerevisiae histone H3/H4 (Saccharomyces cerevisiae)
Assay: pull-down; FACT with GFP-tagged full-length or ΔN Spt16 held on GFP nanobody beads (washed with IP buffer with 500 mM NaCl, then 100 mM NaCl); recombinant histone H3/H4 added; bound proteins by immunoblotting
Settings: both partners purified

Binder | binding result
B1 | binds
B2 | binds
